Test results: PMC2716335, “Isolation of a human-like antibody fragment (scFv) that neutralizes ricin biological activity” (2009)
Where “and” joins values, the source holds several entries; their conditions need not be identical. Identical values can stand only once.

Biological target: scFv 43RCA (Macaca fascicularis)
Experiment: SPR

ricin (whole toxin, Ricinus communis) (from UniProt P02879) (natural protein)
Kd: 0.04 nM and 0.0408 nM and 0.0409 nM
koff: 1.36e-05 s⁻¹
kon: 334000 M⁻¹ s⁻¹
